# Results as given in paper PMC4782136 (Scientific Reports, 2016).
# Tested on: influenza A/Puerto Rico/8/34 (H1N1)
# Experiment: microbe, parasite or virus in culture
# Details: H1N1, read-out: IC50 ± SD, H1N1
smiles,measurement,value
CC(=O)N[C@H]1[C@H]([C@H](O)[C@H](O)CO)OC(C(=O)O)=C[C@@H]1N=C(N)N [Zanamivir],IC50,310 nM
